Values after ≈ are worked out from the molar mass of the structure shown. Structures can show the parent of a compound that is named as a salt.

The subject of this assay is B. fragilis WS-1. In words: Anti-anaerobic activity, microtitre plate broth dilution, strain E. Type of assay: cell-based. The following applies: Bacteroides fragilis, WS1, 48 h, 99.9% reduction in viable count, read-out: MBC (Minimum Bactericidal Concentration). A general note: Broth dilution looks for growth in wells or tubes with falling amounts of substance.
Take `O=C(c1ccccn1)C(Cn1ccnc1)c1ccccc1` (stereo not drawn) [Example 21, 3-(Imidazol-1-yl)-2-phenyl-1-(2-pyridyl)propan-1-one]: the MBC was found to be 25 µg/mL (≈ 90.1 µM). In the case of `O=C(c1ccc(Cl)cc1Cl)C(Cn1ccnc1)c1ccccc1` (stereo not drawn) [Example 2, 1-(2,4-Dichlorophenyl)-3-(imidazol-1-yl)-2-phenylpropan-1-one], the MBC was 0.8 µg/mL (≈ 2.32 µM).

With `Cc1ccc(C(Cn2cncn2)C(=O)c2ccc(Cl)cc2Cl)cc1` (stereo not drawn) [Example 16, 1-(2,4-Dichlorophenyl)-2-(4-methylphenyl)-3-(1,2,4-triazol-1-yl)propan-1-one hydrochloride], the MBC is 3.1 µg/mL. As for `O=C(c1cc(Cl)cc(Cl)c1)C(Cn1ccnc1)c1ccccc1` (stereo not drawn) [Example 18, 1-(3,5-Dichlorophenyl)-3-(imidazol-1yl)-2-phenyl propan-1-one], the MBC amounted to 12.5 µg/mL (≈ 36.2 µM). On to `O=C(c1ccc(Cl)cc1Cl)C(Cn1cncn1)c1ccccc1` (stereo not drawn) [Example 23, 1-(2,4-Dichlorophenyl)-2-phenyl-3-(1,2,4-triazol-1-yl) propan-1-one], for which the MBC was found to be 0.8 µg/mL (≈ 2.31 µM). For the molecule `O=C(c1cccnc1)C(Cn1ccnc1)c1ccccc1` (stereo not drawn) [Example 19, 3-(Imidazol-1-yl)-2-phenyl-1-(3-pyridyl)propan-1-one], the MBC came out at 25 µg/mL (≈ 90.1 µM). Turning to `CCCCCCCC(=O)C(Cn1ccnc1)c1ccc(C)cc1` (stereo not drawn) [Example 17, 1-(Imidazol-1-yl)-2-(4-methylphenyl)decan-3-one hydrochloride], the MBC is 100 µg/mL.

For `Cc1ccc(C(Cn2ccnc2)C(=O)c2ccc(Cl)cc2Cl)cc1` (stereo not drawn) [Example 15, 1-(2,4-Dichlorophenyl)-3-(imidazol-1-yl)-2-(4-methylphenyl) propan-1-one], the MBC was 0.8 µg/mL (≈ 2.23 µM).

`CSc1nccn1CC(C(=O)c1ccc(Cl)cc1Cl)c1ccccc1` (stereo not drawn) [Example 24, 1-(2,4-Dichlorophenyl)-2-phenyl-3-(2-thiomethylimidazol-1-yl)propan-1-one]: the MBC stood at 100 µg/mL (≈ 256 µM).
